ChEMBL document CHEMBL5154878, “Potent Inhibition of SARS-CoV-2 nsp14 N7-Methyltransferase by Sulfonamide-Based Bisubstrate Analogues” (J Med Chem, 2022)

Target: Replicase polyprotein 1ab (Severe acute respiratory syndrome coronavirus 2) (UniProt P0DTD1)
Assay: Inhibition of N7-MTase activity of SARS-CoV-2 N-terminus hexahistidine tag nsp14 expressed in Escherichia coli C2566 at 5 uM using [3H]SAM as substrate incubated for 30 mins in presence of mGpppAC4 synthetic RNA by filter binding assay relative to control

## Nc1ncnc2c1ncn2[C@@H]1O[C@H](C[C@@H](N)CC[C@H](N)C(=O)O)[C@@H](O)[C@H]1O
  inhibition: 100%
